In US5157032A, “Mixed ligand complexes and uses thereof as binding agents and probes to DNA” (The Trustees of Columbia University In The City of New York, priority 1990, dated 1992):

Tests used:
calf thymus DNA = experiment: Spectroscopic properties (absorption, emission, lifetime) on binding to calf thymus DNA; parameters: key to Emission λmax: b: Nonemissive complexes; conditions: for Absorption λmax bound / Emission λmax bound: bound to DNA; for Absorption Δλ / Emission Δλ: bound vs free; for Absorption λmax free / Emission λmax free / εfree / Emission Lifetime free: free complex; for Emission Lifetime free / Emission Lifetime bound, first component (1) / Emission Lifetime bound, second component (2): 20° C., air saturated; for Emission Lifetime bound, first component (1) / Emission Lifetime bound, second component (2): with DNA
Description: Instrumentation: NMR spectra were recorded on a Varian VXR-300MHz spectormeter. FABS were performed using a VG Analytical 7070EQ Mas Spectrometer (78), and elemental analyses were done by Galbraith Laboratories in Nashville, Tenn. UV-Visible absorbance spectal were recorded on a Varian CARY-219 absorbance spectorphotometer. Extinction coefficients for the compounds were determined versus ruthenium concentrations obtained by atomic absorption spectroscopy with known ruthenium standards. [Ru(bpy)3 ]Cl2 solutions were also employed for these determinations as an internal standard. A varian AA-875 atomic absorption spectrophotometer was used for these determinations.
Emission spectra were measured on a Perkin-Elmer LS-5 fluorescence spectrometer. The samples were excited at their corresponding isosbestic points. All the measurements were made at 20° C. in a thermostatted cuvette holder with 3 nm entrance slit and 10 nm exit slit. Ruthenium solutions employed were 7 μM in concentration and claf thymus DNA was added to a ration of 40:1 nucleotide/metal; ruthenuim-DNA soltuions were allowed to incubate for 15 minutes before enhanced spectra were recorded. The emission enhancement factors were measured by comparing the intensitites at the emission spectral mixima in the absence ad presence of DNA, under similar conditions.
The limunescence lifetime measurements were done on a PRA SPC (single photon countining) spectometer with some minor modifications. The samples were excited with a nitrogen filled tnynratron gated flash lamp and the data were collected using a Tracor Northern 1710 multichannel analyser. The data were then transferred to a PDP-11/03 computer and deconvoluted with PRA software. […] concentrated solution of DNA (5mM DNA-phosphate) in buffer was added to a solution of the metal complex (4 μM) in buffer and allowed to equilibrate. Lifetimes of the samples were measured 0.5 hr after the metal complexes were mixed with DNA. All measurements were made at 20° C. and under air saturated conditions.
Furthermore, for all the complexes, this electronic transition is perturbed on binding to DNA.

[1] = Emission and excited-state lifetime (flash photolysis); assay type: physicochemical

For `O=[N+]([O-])c1cc2cccnc2c2ncccc12.O=[N+]([O-])c1cc2cccnc2c2ncccc12.O=[N+]([O-])c1cc2cccnc2c2ncccc12.[Ru+2]` [Ru(5-NO2phen)3^2+, [Ru(5-nitrophenanthroline)3)]Cl2], which “Emission λmax” value (calf thymus DNA) is on record?
The value was “b”.

What about the “Absorption λmax bound” value (calf thymus DNA) of the same molecule?
Its value is 454 nm.

And the “Absorption Δλ” value (calf thymus DNA)?
The value was 4 nm.

What about the “Absorption λmax free” value (calf thymus DNA) of the same molecule?
The value was 450 nm.

What does the source list for `[Ru+2].c1ccc(-c2ccnc3c2ccc2c(-c4ccccc4)ccnc23)cc1.c1ccc(-c2ccnc3c2ccc2c(-c4ccccc4)ccnc23)cc1.c1cnc2c(c1)ccc1cccnc12` [Ru(DIP)2 (phen)^2+]?
Absorption λmax bound (calf thymus DNA): 439 nm; Emission λmax bound (calf thymus DNA): 621 nm; Absorption Δλ (calf thymus DNA): 6 nm; Emission Δλ (calf thymus DNA): +5 nm; Absorption λmax free (calf thymus DNA): 433 nm; Emission λmax free (calf thymus DNA): 616 nm; εfree (calf thymus DNA): 29,400 M-1 cm-1; Emission Lifetime free (calf thymus DNA): 990 nanoseconds; Emission Lifetime bound, first component (1) (calf thymus DNA): 116 ± 40 nanoseconds; Emission Lifetime bound, second component (2) (calf thymus DNA): 5100 ± 430 nanoseconds

Which “Absorption λmax bound” value (calf thymus DNA) does the source give for `[Ru+2].c1ccc(-c2ccccn2)nc1.c1ccc(-c2ccccn2)nc1.c1ccc(-c2ccnc3c2ccc2c(-c4ccccc4)ccnc23)cc1` [Ru(bpy)2 (DIP)^2+] here?
Its value is 454 nm.

And the “Emission λmax bound” value (calf thymus DNA)?
Its value is 621 nm.

What about the “Absorption Δλ” value (calf thymus DNA) of the same molecule?
Its value is 0 nm.

What about the “Emission Δλ” value (calf thymus DNA) of the same molecule?
The value was 6 nm.

What about the “Absorption λmax free” value (calf thymus DNA) of the same molecule?
Its value is 454 nm.

What about the “Emission λmax free” value (calf thymus DNA) of the same molecule?
The value was 615 nm.

What about the εfree (calf thymus DNA) of the same molecule?
The εfree was 18,600 M-1 cm-1.

And the “Emission Lifetime free” value (calf thymus DNA)?
The value was 700 nanoseconds.

And the “Emission Lifetime bound, first component (1)” value (from here on “Emission Lifetime bound … (1)”) (calf thymus DNA)?
The value was 640 ± 40 nanoseconds.

And the “Emission Lifetime bound, second component (2)” value (“Emission Lifetime bound … (2)” below) (calf thymus DNA)?
Its value is 4700 ± 600 nanoseconds.

With `[Ru+2].c1ccc(-c2ccnc3c2ccc2c(-c4ccccc4)ccnc23)cc1.c1cnc2c(c1)ccc1cccnc12.c1cnc2c(c1)ccc1cccnc12` [Ru(phen)2 (DIP)^2+] as the molecule, how does the “Absorption λmax bound” value (calf thymus DNA) read?
Its value is 432 nm.

What about the “Emission λmax bound” value (calf thymus DNA) of the same molecule?
The value was 606 nm.

And the “Absorption Δλ” value (calf thymus DNA)?
The value was 5 nm.

What about the “Emission Δλ” value (calf thymus DNA) of the same molecule?
Its value is -8 nm.

And the “Absorption λmax free” value (calf thymus DNA)?
The value was 427 nm.

And the “Emission λmax free” value (calf thymus DNA)?
The value was 614 nm.

And the εfree (calf thymus DNA)?
Its εfree is 20,550 M-1 cm-1.

What about the “Emission Lifetime free” value (calf thymus DNA) of the same molecule?
The value was 970 nanoseconds.

What about the “Emission Lifetime bound … (1)” value (calf thymus DNA) of the same molecule?
Its value is 1160 ± 30 nanoseconds.

And the “Emission Lifetime bound … (2)” value (calf thymus DNA)?
The value was 5290 ± 80 nanoseconds.

Which “Emission λmax” value (calf thymus DNA) does the source give for `O=C1c2cccnc2-c2ncccc21.[Ru+2].c1cnc2c(c1)ccc1cccnc12.c1cnc2c(c1)ccc1cccnc12` [Ru(phen)2 (flone)^2+, [Ru(phen)2 (4,5-diazafuorene-9-one)]Cl2] here?
Its value is “b”.

And the “Absorption λmax bound” value (calf thymus DNA)?
The value was 436 nm.

What about the “Absorption Δλ” value (calf thymus DNA) of the same molecule?
Its value is 0 nm.

What about the “Absorption λmax free” value (calf thymus DNA) of the same molecule?
The value was 436 nm.

What about the εfree (calf thymus DNA) of the same molecule?
The εfree was 18,800 M-1 cm-1.

For `N=C1C(=N)c2ccccc2-c2ccccc21.[Ru+2].c1cnc2c(c1)ccc1cccnc12.c1cnc2c(c1)ccc1cccnc12` [Ru(phen)2 (phi)^2+], which “Emission λmax” value (calf thymus DNA) is on record?
Its value is “b”.

And the “Absorption λmax bound” value (calf thymus DNA)?
Its value is 544 nm.

What about the “Absorption Δλ” value (calf thymus DNA) of the same molecule?
Its value is 9 nm.

What about the “Absorption λmax free” value (calf thymus DNA) of the same molecule?
The value was 535 nm.

And the εfree (calf thymus DNA)?
Its εfree is 51,900 M-1 cm-1.

For `[Ru].c1cnc2c(c1)ccc1cccnc12.c1cnc2c(c1)ccc1cccnc12.c1cnc2c(c1)ccc1cccnc12` [Ru(phen)3^2+, reference compound], which “Absorption λmax bound” value (calf thymus DNA) is on record?
Its value is 445 nm.

And the “Emission λmax bound” value (calf thymus DNA)?
Its value is 593 nm.

And the “Absorption Δλ” value (calf thymus DNA)?
The value was 2 nm.

What about the “Emission Δλ” value (calf thymus DNA) of the same molecule?
The value was 2 nm.

And the “Absorption λmax free” value (calf thymus DNA)?
The value was 443 nm.

What about the “Emission λmax free” value (calf thymus DNA) of the same molecule?
Its value is 591 nm.

And the εfree (calf thymus DNA)?
The εfree was 20,000 M-1 cm-1.

And the “Emission Lifetime free” value (calf thymus DNA)?
The value was 530 nanoseconds.

What about the “Emission Lifetime bound … (1)” value (calf thymus DNA) of the same molecule?
Its value is 630 ± 70 nanoseconds.

What about the “Emission Lifetime bound … (2)” value (calf thymus DNA) of the same molecule?
The value was 2300 ± 620 nanoseconds.

With `N=C1C(=N)c2ccccc2-c2ccccc21.N=C1C(=N)c2ccccc2-c2ccccc21.[Ru+2].c1ccc(-c2ccccn2)nc1` [Ru(phi)2 (bpy)^2+] as the molecule, how does the “Emission λmax” value (calf thymus DNA) read?
The value was “b”.

What about the “Absorption λmax bound” value (calf thymus DNA) of the same molecule?
The value was 582 nm.

And the “Absorption Δλ” value (calf thymus DNA)?
Its value is 10 nm.

What about the “Absorption λmax free” value (calf thymus DNA) of the same molecule?
Its value is 572 nm.

And the εfree (calf thymus DNA)?
Its εfree is 75,300 M-1 cm-1.

Which results are given for `N=C1C(=N)c2ccccc2-c2ccccc21.N=C1C(=N)c2ccccc2-c2ccccc21.N=C1C(=N)c2ccccc2-c2ccccc21.[Ru+2]` [Ru(phi)3^2+]?
excited-state lifetime ([1]; flash photolysis): ≤ 6 ns; emission 350 to 800 nm ([1]; pH 1-11, various solvents, 77K): No emission was observed
